Results reported in publication PMC12133982 (2025).

Key:
[1] = target: HLA-B1501 (Homo sapiens, UniProt P01889, A329T/A93T/A95T/C349S/D201E/D98Y/E187L/E204Q/E69M/E70A/K202T/N87E/Q94N/R155S/R180W/S121R/S35A/S48A/V306I/V36M/Y140S/Y91S); test: cell-based
[2] = target: HLA-B1301 (Homo sapiens, UniProt P01889, A65T/A93T/A95T/D138N/D201E/D98Y/E176V/E204Q/E69M/E70A/G107R/K202T/L105A/L119I/N104T/N87E/Q94N/R106L/R155S/R169L/R180L/S101N/S121R/S35A/S48T/T118I/V127L/V36M/Y140L/Y91S); test: Competitive peptide binding assay, CIR-B1301
[3] = target: HLA-B5801 (Homo sapiens, UniProt P01889, A329T/C349S/D201E/D98Y/E176V/E187L/E204Q/E69T/G107R/I218V/I90N/K202T/L105A/L119I/N104I/N87E/Q89R/Q94S/R106L/R155S/R180L/R86G/S101N/S121R/S35A/S48A/T118I/V127L/V306I/V36M/Y140S/Y91M); test: cell-based; conditions: Binding affinity with HLA-B5801, HMy2.CIR-B5801 cells, reference Cy5-[…], class from inhibition at 5 and 15 μM, flow cytometry MFI
[4] = target: HLA-B3501 (Homo sapiens, UniProt P01889, A329T/A93T/A95T/C349S/D201E/D98Y/E176V/E187L/E204Q/E69T/I218V/K202T/L119I/Q94N/R155S/R180L/S121R/S35A/S48A/T118I/V127L/V306I/V36M/Y140S/Y91F); test: cell-based

Measured: pIC50

CC[C@H](C)[C@H](NC(=O)[C@H](CCC(=O)O)NC(=O)[C@@H](N)CCCCN)C(=O)N[C@@H](CC(=O)O)C(=O)N[C@@H](CCCNC(=N)N)C(=O)N[C@@H](CC(C)C)C(=O)N[C@@H](CC(N)=O)C(=O)N[C@@H](CCC(=O)O)C(=O)N[C@H](C(=O)O)C(C)C [Epitope Y119]
< 4.82: all assays above

pIC50: −log10 of the molar value.
